Calls of active or inactive are those of the source.
Experiments:
Coxiella burnetii [1] = experiment: Bactericidal activity against compound-resistant Coxiella burnetii isolate CP6 obtained from patient with acute Q fever infected in african green monkey Vero cells assessed as decrease in bacterial titer at 4 ug/ml after 24 hrs by shell vial assay
Coxiella burnetii [2] = experiment: Bactericidal activity against compound-resistant Coxiella burnetii isolate CP2 obtained from patient with acute Q fever infected in african green monkey Vero cells assessed as decrease in bacterial titer at 4 ug/ml after 24 hrs by shell vial assay
Coxiella burnetii [3] = experiment: Bactericidal activity against compound-resistant Coxiella burnetii isolate CP1 obtained from patient with acute Q fever infected in african green monkey Vero cells assessed as decrease in bacterial titer at 4 ug/ml after 24 hrs by shell vial assay
Coxiella burnetii [4] = experiment: Bactericidal activity against compound-resistant Coxiella burnetii isolate CP5 obtained from patient with acute Q fever infected in african green monkey Vero cells assessed as decrease in bacterial titer at 4 ug/ml after 24 hrs by shell vial assay
Coxiella burnetii [5] = experiment: Bactericidal activity against compound-resistant Coxiella burnetii isolate CP8 obtained from patient with acute Q fever infected in african green monkey Vero cells assessed as decrease in bacterial titer at 4 ug/ml after 24 hrs by shell vial assay
Coxiella burnetii [6] = experiment: Bactericidal activity against compound-resistant Coxiella burnetii isolate CP3 obtained from patient with acute Q fever infected in african green monkey Vero cells assessed as decrease in bacterial titer at 4 ug/ml after 24 hrs by shell vial assay
Coxiella burnetii [7] = experiment: Bactericidal activity against compound-resistant Coxiella burnetii isolate CP4 obtained from patient with acute Q fever infected in african green monkey Vero cells assessed as decrease in bacterial titer at 4 ug/ml after 24 hrs by shell vial assay
Coxiella burnetii [8] = experiment: Bactericidal activity against compound-resistant Coxiella burnetii isolate CP7 obtained from patient with acute Q fever infected in african green monkey Vero cells assessed as decrease in bacterial titer at 4 ug/ml after 24 hrs by shell vial assay
Coxiella burnetii [9] = experiment: Bactericidal activity against compound-resistant Coxiella burnetii Q212 obtained from patient with acute Q fever infected in african green monkey Vero cells assessed as decrease in bacterial titer at 4 ug/ml after 24 hrs by shell vial assay
Coxiella burnetii [10] = experiment: Bactericidal activity against compound-resistant Coxiella burnetii Nine-Mile obtained from patient with acute Q fever infected in african green monkey Vero cells assessed as decrease in bacterial titer at 4 ug/ml after 24 hrs by shell vial assay

Measured: Activity

CN(C)c1cc(NC(=O)CNC(C)(C)C)c(O)c2c1C[C@H]1C[C@H]3[C@H](N(C)C)C(O)=C(C(N)=O)C(=O)[C@@]3(O)C(O)=C1C2=O [TIGECYCLINE]
inactive: all assays above

From ChEMBL document CHEMBL1649456 (Antimicrob Agents Chemother, 2009)
